Results on 14 compounds are retold here after patent publication US12433872B2, “Treatment of Acanthamoeba or Balamuthia trophozoites and/or cysts” (GEORGIA STATE UNIVERSITY RESEARCH FOUNDATION, INC., priority 2018, dated 2025).

Counter-ions that a name gives are not always drawn.

Assay type in all cases: cell-based
What all share (conditions): selectivity index, A549 IC50 versus 30 day MCC

The subject of data set [1] is Acanthamoeba castellanii (ATCC50370) cysts. In words: Encystation drug susceptibility / excystation viability assay, 30 day recovery, A. castellanii cysts. How it is done:
(§1) The trophozoites of Acanthamoeba were harvested by mechanical detachment and collected via centrifugation at 4000 rpm at 4° C. for 5 minutes. The trophozoites were washed in 10 mL of Neff's Encystment Media (NEM). NEM composition is 20 mM Tris-HCL [pH 8.8] (2.43 g/L), 100 mM KCL (7.46 g/L), 8 mM MgSO4 (962.96 mg/L), 0.4 mM CaCL2 58.81 mg/L) and 1 mM NaHCO3 (84.01 mg/L) (Neff et al. 1964). All reagents were bought from Sigma Aldrich. Centrifugation of the trophozoites was repeated to ensure any residual growth medium was removed. The pellet was resuspended in a final volume of 15 mL of NEM, cultured in 75 cm^2 corning tissue culture flasks and incubated vertically in a thermal shaker, shaken at 100 rpm at 37° C. for 72 hours to produce fully matured cysts. NEM was supplemented with 250 μg of penicillin/streptomycin. Fresh cysts were produced each time for any experimentation.
(§2) At 72 hours the cysts were harvested using a cell scraper and collected via centrifugation at 4000 rpm at 25° C. for 10 minutes. The cells were washed twice in 10 mL of HyClone™ water, Molecular Biology Grade, and centrifugation was repeated to ensure the removal of any residual NEM. The cell suspension was washed with 0.5% sodium dodecyl sulphate (SDS) to remove any remaining trophozoites and immature cysts. The fully mature cysts were further washed twice with 10 mL of HyClone™ water and 1% NEM, centrifugation was repeated to remove any residue of SDS. The concentration of mature cysts was determined using a haemocytometer and adjusted to 1×10^4 cysts/mL in NEM.
(§3) All test compounds were prepared as 5 mg/mL stock solutions in dimethylsulfoxide (DMSO). All compounds were diluted in NEM, serially diluted in 2-fold dilutions 6 or 11 times, yielding a screening concentration range of 1.56 μg/mL to 50 μg/mL or 48 ng/mL to 50 μg/mL with a final highest screening concentration of 1% DMSO.
(§4) Based on this, a strain specific test period and also a 30 day non-specific recovery time were considered. For the 30 day recovery period, the media was changed 5 times to ensure the contents of wells dis not evaporate and have an effect within the results of the assay.
(§5) 90 μL of 1×10^4 Cysts/ml and 10 μL of experimental compounds from the screening plates were produced according to the protocols above and combined into a Corning clear 96 well treated tissue culture plate. Control wells include cysts in non-drug treated, 1% DMSO, NEM (to be used for negative growth control), NEM Blank, PG blank and cysts in non-drug treated, 1% DMSO, PG (to excyst cells and to be used for positive growth control). The total well volume for all wells was 100 μL. The drug exposed plates were screened at 27° C. for 6 or 24 hours only. At the exposure time point the plates were centrifuged at 4000 rpm at 25° C. for 10 minutes and washed twice with phosphate-buffered saline (PBS) to remove any residual experimental compound.
(§6) Once the plate(s) underwent the Encystation drug susceptibility process, all wells except the negative growth control and NEM blank wells received PG growth medium. All plates were left to recover at 27° C. for the strain specific time period of 5, 9 or 11 days depending on the species of Acanthamoeba. At each of the strain specific time points the plates were removed from incubation and microscopically analysed (qualitatively) for the excystation process for the emergence of excysted viable trophozoites or residual cysts. The presence of excysted trophozoites indicated viable amoebae (non-cystistatic or cysticidal—no effect) and the absence of excystation was considered as cystistatic/cysticidal effects.

For data set [2], the system named is Acanthamoeba healyi cysts. In words: Encystation drug susceptibility / excystation viability assay, 30 day recovery, A. healyi cysts. On the procedure:
as §1, §2, §3, §4, §5, §6

Data set [3] concerns Acanthamoeba culbertsoni (ATCC30171) cysts. In words: Encystation drug susceptibility / excystation viability assay, 30 day recovery, A. culbertsoni cysts. How it is done:
as §1, §2, §3, §4, §5, §6

Turning to `COc1cc(-c2nc3ccc(C(=N)NC(C)C)cc3[nH]2)ccc1Oc1ccc(-c2nc3ccc(C(=N)NC(C)C)cc3[nH]2)cc1F` [J, 2-(3-Fluoro-4-(4-(6-(N-isopropylcarbamimidoyl)-1H-benzo[d]imidazol-2-yl)-2-methoxyphenoxy)phenyl)-N-isopropyl-1H-benzo[d]imidazole-6-carboximidamide], in data set [1], the “A. castellanii SI” value came out at 0.36. In data set [2], the “A. healyi SI” value was 0.43. Besides, the “A. culbertsoni SI” value in data set [3] is 0.54.
For the compound `CC(C)NC(=N)c1ccc2nc(-c3ccc(Oc4ccc(-c5nc6ccc(C(=N)NC(C)C)cc6[nH]5)c(Br)c4)c(F)c3)[nH]c2c1` [Q, 2-(2-Bromo-4-(2-fluoro-4-(6-(N-isopropylcarbamimidoyl)-1H-benzo[d]imidazol-2-yl)phenoxy)phenyl)-N-isopropyl-1H-benzo[d]imidazole-6-carboximidamide], the “A. castellanii SI” value in data set [1] is on record as 0.98. The “A. healyi SI” value in data set [2] amounted to 0.98. Also, in data set [3], the “A. culbertsoni SI” value was determined as 1.30.
Consider `CC(C)NC(=N)c1ccc2nc(-c3ccc(Oc4ccc(-c5nc6ccc(C(=N)NC(C)C)cc6[nH]5)c(Cl)c4)cc3Cl)[nH]c2c1` [L, 2-2′-(Oxybis(2-chloro-4,1-phenylene))bis(N-isopropyl-3H-benzo[d]imidazole-6-carboximidamide)], for which the “A. castellanii SI” value in data set [1] is 1.45. Besides, the “A. healyi SI” value in data set [2] is on record as 1.45. Moreover, the “A. culbertsoni SI” value in data set [3] stood at 1.45.
On to `CC(C)NC(=N)c1ccc2nc(-c3ccc(Oc4ccc(-c5nc6ccc(C(=N)NC(C)C)cc6[nH]5)cc4Br)cc3)[nH]c2c1` [O, 2-(3-Bromo-4-(4-(6-(N-isopropylcarbamimidoyl)-1H-benzo[d]imidazol-2-yl)phenoxy)phenyl)-N-isopropyl-1H-benzo[d]imidazole-6-carboximidamide], for which, in data set [1], the “A. castellanii SI” value is 0.33. For the same compound, the “A. healyi SI” value in data set [2] was 0.33. In addition, the “A. culbertsoni SI” value in data set [3] turned out to be 0.33.
Turning to `CC(C)NC(=N)c1ccc2nc(-c3ccc(Oc4ccc(-c5nc6ccc(C(=N)NC(C)C)cc6[nH]5)c(Br)c4)cc3)[nH]c2c1` [M, 2-(2-Bromo-4-(4-(6-(N-isopropylcarbamimidoyl)-1H-benzo[d]imidazol-2-yl)phenoxy)phenyl)-N-isopropyl-1H-benzo[d]imidazole-6-carboximidamide], in data set [1], the “A. castellanii SI” value turned out to be 1.38. Also, the “A. healyi SI” value in data set [2] was found to be 1.03. Besides, in data set [3], the “A. culbertsoni SI” value came to 0.69.
The matching figures for `N=C(NCCCCCCNC(=N)NC(=N)Nc1ccc(Cl)cc1)NC(=N)Nc1ccc(Cl)cc1` [Chlorhexidine, chlorhexidine, reference compound]: 0.03, 0.03 and 0.03.
The matching figures for `CC(C)NC(=N)c1ccc2nc(-c3ccc(Oc4ccc(-c5nc6ccc(C(=N)NC(C)C)cc6[nH]5)c(Br)c4)c(Br)c3)[nH]c2c1` [Compound R, 2-(2-Bromo-4-(2-bromo-4-(6-(N-isopropylcarbamimidoyl)-1H-benzo[d]imidazol-2-yl)phenoxy)phenyl)-N-isopropyl-1H-benzo[d]imidazole-6-carboximidamide]: 1.57, 1.18 and 1.57.
Taken in the same sequence, the figures for `CC(C)NC(=N)c1ccc2nc(-c3ccc(Oc4ccc(-c5nc6ccc(C(=N)NC(C)C)cc6[nH]5)cc4Cl)c(Cl)c3)[nH]c2c1` [P, 2,2′-(Oxybis(3-chloro-4,1-phenylene))bis(N-isopropyl-1H-benzo[d]imidazole-6-carboximidamide)] were 0.27, 0.49 and 0.25.
As for `CCC(CC)NC(=N)c1ccc2nc(-c3ccc(Oc4ccc(-c5nc6ccc(C(=N)NC(CC)CC)cc6[nH]5)cc4)cc3)[nH]c2c1` [Compound T], in data set [1], the “A. castellanii SI” value is reported as 2.75. For the same compound, in data set [2], the “A. healyi SI” value came out at 4.13. Also, in data set [3], the “A. culbertsoni SI” value amounted to 5.51.
Taken in the same sequence, the figures for `CCCCC(CC)CNC(=N)NC(=N)NCCCCCCNC(=N)NC(=N)NCC(CC)CCCC` (stereo not drawn) [Alexidine HCL, alexidine, reference compound] were 0.29, 0.29 and 0.29.
Taken in the same sequence, the figures for `CC(C)NC(=N)c1ccc2nc(-c3ccc(Oc4ccc(-c5nc6ccc(C(=N)NC(C)C)cc6[nH]5)cc4F)cc3)[nH]c2c1` [Compound I, 2-(3-Fluoro-4-(4-(6-(N-isopropylcarbamimidoyl)-1H-benzo[d]imidazol-2-yl)phenoxy)phenyl)-N-isopropyl-1H-benzo[d]imidazole-6-carboximidamide] were 0.82, 0.82 and 0.41.
The matching figures for `COc1cc(Oc2ccc(-c3nc4ccc(C(=N)NC(C)C)cc4[nH]3)c(Br)c2)ccc1-c1nc2ccc(C(=N)NC(C)C)cc2[nH]1` [N, 2-(2-Bromo-4-(4-(6-(N-isopropylcarbamimidoyl)-1H-benzo[d]imidazol-2-yl)-3-methoxyphenoxy)phenyl)-N-isopropyl-1H-benzo[d]imidazole-6-carboximidamide]: 0.43, 0.71 and 1.07.
As for `COc1cc(Oc2ccc(-c3nc4ccc(C(=N)NC(C)C)cc4[nH]3)cc2F)ccc1-c1nc2ccc(C(=N)NC(C)C)cc2[nH]1` [K, 2-(3-Fluoro-4-(4-(6-(N-isopropylcarbamimidoyl)-1H-benzo[d]imidazol-2-yl)-3-methoxyphenoxy)phenyl)-N-isopropyl-1H-benzo[d]imidazole-6-carboximidamide], the “A. castellanii SI” value in data set [1] was 0.42. Moreover, the “A. healyi SI” value in data set [2] is on record as 0.52. Moreover, the “A. culbertsoni SI” value in data set [3] amounted to 1.39.
The matching figures for `COc1cc(Oc2ccc(-c3nc4ccc(C(=N)NC(C)C)cc4[nH]3)c(Cl)c2)ccc1-c1nc2ccc(C(=N)NC(C)C)cc2[nH]1` [Compound S]: 1.05, 1.58 and 3.16.
